Biological target: QuantiLum Luciferase (Photinus pyralis, UniProt P08659)
Test: pH dependence of firefly luciferase luminescence with luciferin or 5'-fluoroluciferin
Type: biochemical
Parameters: purchased Promega Corporation E170
Details: pH 7.89 reagent

Chains of the proteins cited; added tags and fusions are not shown.
UniProt P08659, whole entry: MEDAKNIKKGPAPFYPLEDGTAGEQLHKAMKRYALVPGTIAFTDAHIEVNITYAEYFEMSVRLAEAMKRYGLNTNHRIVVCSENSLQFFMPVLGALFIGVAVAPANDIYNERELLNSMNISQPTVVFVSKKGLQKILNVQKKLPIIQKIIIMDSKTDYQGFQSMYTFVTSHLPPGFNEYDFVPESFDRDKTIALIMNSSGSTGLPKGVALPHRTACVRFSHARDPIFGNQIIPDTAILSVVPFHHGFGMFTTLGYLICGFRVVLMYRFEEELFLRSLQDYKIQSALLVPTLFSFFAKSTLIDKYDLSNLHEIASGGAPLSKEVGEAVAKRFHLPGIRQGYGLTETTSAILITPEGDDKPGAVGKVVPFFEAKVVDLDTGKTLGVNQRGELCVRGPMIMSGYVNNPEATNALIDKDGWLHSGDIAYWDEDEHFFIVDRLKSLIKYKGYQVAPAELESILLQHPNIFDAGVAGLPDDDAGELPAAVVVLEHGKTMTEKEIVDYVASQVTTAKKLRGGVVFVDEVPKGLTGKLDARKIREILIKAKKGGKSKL

O=C(O)[C@H]1CSC(c2nc3ccc(O)cc3s2)=N1 [luciferin, (4S)-4,5-dihydro-2-(6-hydroxybenzothiazolyl)-4-thiazolecarboxylic acid, reference compound]
increase of luminescence when buffer changed from HEPES to tricine: 28%

Reference: patent EP1935986B1, “Luminogenic and fluorogenic compounds and methods to detect molecules or conditions” (priority 2005, dated 2006)
